Source: paper PMC5361054, “Exploring the Association of Surface Plasmon Resonance with Recombinant MHC:Ig Hybrid Protein as a Tool for Detecting T Lymphocytes in Mice Infected with Leishmania (Leishmania) amazonensis” (BioMed Research International, 2017)

system: H-2 L^d:Ig (DimerX) protein; assay: SPR kinetics of synthetic peptide binding to immobilized DimerX; parameters: species or system Mouse; conditions: calculated from ka and kd of the SPR assay at 25°C, neutral pH
Method: Surface Functionalization of Sensor Chip (Steps 1 and 2). The functionalization process was performed in eight steps using running buffer (10 mM HEPES, 3 mM EDTA, 150 mM NaCl, and 0.005% Tween 20, pH 7.4) at a continuous flow rate (Fr): (i) injection of 10 μL of 50 mM HCl (Fr = 10 μL/min); (ii) injection of 100 μL 10 mM CH3COOH (Fr = 50 μL/min); (iii) injection of 150 μL of coupling agents (1 : 1) 400 mM EDC : NHS (Fr = 15 μL/min); (iv) injection of 100 μL 10 mM CH3COOH (Fr = 50 μL/min); (v) injection of 100 μL (0.5 μg) of DimerX H-2 L^d:Ig (Fr = 10 μL/min); (vi) injection of 100 μL 10 mM CH3COOH (Fr = 50 μL/min); (vii) injection of 150 μL 100 mM ethanolamine (Fr = 20 μL/min); and (viii) injection of 200 μL 50 mM HCl (Fr = 50 μL/min).
Complex Formation of H-2 L ^d :Ig/Peptide (Step 3). Binding of peptides to protein DimerX was performed through the injection of 100 μL of each synthetic peptide over the functionalized sensor chip (Fr = 10 μL/min). The peptides (2 mg/mL) were diluted in filtrated PBS, which was also used as the running buffer. The concentration of peptides for binding to the DimerX was determined according to the manufacturer's instructions:(1) Mp=MH·R·Dp/DH, where Mp is micrograms of the peptide, MH is micrograms of H-2 in the reaction, R is molar excess (160 mol) between the peptide and protein H-2, Dp is molecular weight of the peptide, and DH is molecular weight of DimerX (250,000 Da).
Affinity Constants and Gibbs Free Energy. […] The following calculation was used to obtain the KD for interactions that rapidly reach equilibrium:(2) KD=kd/ka. The formation of molecular complex between DimerX and peptides complex was also analyzed to calculate the Gibbs free energy of dissociation. This energy is related to the equilibrium constant (Keq) of the transition state between the product (DimerX/peptide) and its transient state. The values of Keq were calculated using the ka and kd data obtained from the SPR assay at 25°C:(3) ΔG^°=−RTln1/Keq.
The kinetic parameters of DimerX/peptides complexes were assessed, prior to the ex vivo assay with the mouse cells, to ensure that the assayed peptides could stably bind to the H-2 cleft of DimerX proteins. The DimerX proteins were immobilized onto the sensor chip using the EDC/NHS methodology for covalent binding and, thus, we assumed that the α1 and α2 domains of the recombinant H-2 were free to interact with the synthetic peptides in solution. The RU value obtained after DimerX immobilization was taken as reference to define the baseline to measure peptides binding (Figure 1).

Row | Sequence | free Gibbs energy (ΔG) [kcal/mol]
1 | CLGGGLCL [P6.4, synthetic peptide CLGGGLCL derived from the COOH-terminal region of cysteine proteinase B of L. (L.) amazonensis] | -11.0
2 | EFCLGGGLC [P6.5, synthetic peptide … derived from the COOH-terminal region of cysteine proteinase B of L. (L.) amazonensis] | -12.5
3 | MVEQVICFD [P1.9, synthetic peptide … derived from the COOH-terminal region of cysteine proteinase B of L. (L.) amazonensis] | -09.7
4 | VEQVICFD [P1.10, synthetic peptide VEQVICFD derived from the COOH-terminal region of cysteine proteinase B of L. (L.) amazonensis] | -12.2
